Anti-infective test results gathered from many reports (values: NIAID ChemDB through PubChem).

An empty or dashed field is not shown.

compound,method,target,strain or isolate,organism,test,read-out,tested at,result
CCOC(=O)c1csc(CCCOc2ccccc2)c1N.Cl,-,-,H37Rv,Mycobacterium tuberculosis,culture,MIC,-,>100 µg/mL
O=C(O)c1ccc(Nc2nc3nn(Cc4ccccc4)cc3c(=O)s2)cc1,BACTEC,-,H37Rv,Mycobacterium tuberculosis,culture,MIC bound,-,>12.5 µg/mL
Fc1ccccc1N1CCN(c2cncc(-c3ccc4ccccc4c3)n2)CC1,-,UL97 kinase,-,Cytomegalovirus,target,inhibition,1 µM,<50%
O=[N+]([O-])CC(O)(c1ccccc1)c1ccccc1,-,-,H37Rv,Mycobacterium tuberculosis,culture,MIC,-,>100 µg/mL
c1ccc2cc(-c3cncc(N4CCN(c5ccncc5)CC4)n3)ccc2c1,-,UL97 kinase,-,Cytomegalovirus,target,IC50,-,<1 µM
NC(=N\N=C(/c1ccccc1)c1ccc(N)cc1)/C(N)=N/N=C(\c1ccccc1)c1ccc(N)cc1,BACTEC,-,H37Rv,Mycobacterium tuberculosis,culture,MIC,-,≥12.5 µg/mL
c1ccc(Oc2ccc(-c3cncc(N4CCN(c5ccccc5)CC4)n3)cc2)cc1,-,UL97 kinase,-,Cytomegalovirus,target,inhibition,10 µM,>15%
Fc1ccc(N2CCCCC2)c(NC(=S)c2ccncc2)c1,kinase activity,MAPKAP-K2,-,-,host protein,inhibition,10 µM,-6%
Cc1c(N)c(=O)n(-c2ccccc2)n1C,BACTEC,-,H37Rv,Mycobacterium tuberculosis,culture,inhibition,12.8 µg/mL,-2%
Cc1ccc(N(C)S(=O)(=O)c2ccc(N)c(Cl)c2)cc1,-,-,H37Rv,Mycobacterium tuberculosis,culture,MIC,-,25 µg/mL
COC(=O)CCc1cc(=O)oc2ccc3cc(CC(=O)OC)oc3c12,BACTEC,-,H37Rv,Mycobacterium tuberculosis,culture,inhibition,6.25 µg/mL,0%
Cc1cc(C)cc(-c2cncc(N3CCN(c4ccccc4)CC3)n2)c1,-,UL97 kinase,-,Cytomegalovirus,target,inhibition,10 µM,>15%
N=C(N)SCc1cccc2ccccc12,-,-,H37Rv,Mycobacterium tuberculosis,culture,MIC,-,>100 µg/mL
CC(=O)c1ccccc1-c1cncc(N2CCN(c3ccc(F)cc3F)CC2)n1,-,UL97 kinase,-,Cytomegalovirus,target,IC50,-,<10 µM
NC(C(=O)[O-])(c1ccccc1)c1ccccc1.[Na+],-,-,H37Rv,Mycobacterium tuberculosis,culture,MIC,-,100 µg/mL
CCN(CC)CC(O)CNc1ccc(NCC2CO2)c2c1C(=O)c1ccccc1C2=O,BACTEC,-,H37Rv,Mycobacterium tuberculosis,culture,inhibition,12.5 µg/mL,100%
CCCC(N)C(=O)O,-,-,H37Rv,Mycobacterium tuberculosis,culture,MIC,-,>100 µg/mL
O=C(Nc1ccccc1)c1cc(S(=O)(=O)N2CCNNC2=O)c(S)cc1Cl,resazurin,-,H37Rv,Mycobacterium tuberculosis,culture,inhibition,6.25 µg/mL,1%
Clc1ccc(-c2cncc(N3CCN(c4ccncc4)CC3)n2)cc1,-,UL97 kinase,-,Cytomegalovirus,target,IC50,-,<10 µM
CCn1c(=O)c2ncnnc2n(CC)c1=O,BACTEC,-,H37Rv,Mycobacterium tuberculosis,culture,inhibition,12.5 µg/mL,8%
CC1C=CC(=O)O1,-,-,H37Rv,Mycobacterium tuberculosis,culture,MIC,-,>100 µg/mL

The first 2 rows once more:

{"compound": "CCOC(=O)c1csc(CCCOc2ccccc2)c1N.Cl", "strain or isolate": "H37Rv", "organism": "Mycobacterium tuberculosis", "test": "culture", "read-out": "MIC", "result": ">100 µg/mL"}
{"compound": "O=C(O)c1ccc(Nc2nc3nn(Cc4ccccc4)cc3c(=O)s2)cc1", "method": "BACTEC", "strain or isolate": "H37Rv", "organism": "Mycobacterium tuberculosis", "test": "culture", "read-out": "MIC bound", "result": ">12.5 µg/mL"}

MIC bound comes from a single tested concentration. Lines come from different laboratories, so protocols vary. ICn: concentration for n% inhibition. Inhibition is in % at the dose shown (toxicity tests: loss of growth or viability).